Measurements as given in US10463688B2, “Nylon-3 polymers active against Clostridium difficile” (priority 2015, dated 2019).
In brackets after ≈: the same amount, converted by molar mass.

Assays:
[1] = tested on: C. difficile vegetative cells (630Δerm strain); conditions: MH broth, 24 h at 37° C., anaerobic
[2] = tested on: C. difficile vegetative cells (630Δerm strain); assay: microbe, parasite or virus in culture; conditions: Clostridioides difficile, 24 h, read-out: MIC, minimum inhibitory concentration for vegetative cell growth

Structure (SMILES)	MIC, minimum inhibitory concentration for vegetative cell growth [1]	MIC [2]
CC[C@H](C)[C@H](NC(=O)[C@H](CCCCN)NC(=O)[C@H](CCC(=O)O)NC(=O)[C@H](CCCCN)NC(=O)[C@H](CO)NC(=O)[C@H](CCCCN)NC(=O)[C@H](CCCNC(=N)N)NC(=O)[C@H](Cc1ccccc1)NC(=O)[C@H](Cc1ccccc1)NC(=O)[C@H](CC(=O)O)NC(=O)CNC(=O)[C@H](CC(C)C)NC(=O)[C@@H](N)CC(C)C)C(=O)NCC(=O)N[C@@H](CCCCN)C(=O)N[C@@H](CCC(=O)O)C(=O)N[C@@H](Cc1ccccc1)C(=O)N[C@@H](CCCCN)C(=O)N[C@@H](CCCNC(=N)N)C(=O)N[C@H](C(=O)N[C@H](C(=O)N[C@@H](CCC(N)=O)C(=O)N[C@@H](CCCNC(=N)N)C(=O)N[C@H](C(=O)N[C@@H](CCCCN)C(=O)N[C@@H](CC(=O)O)C(=O)N[C@@H](Cc1ccccc1)C(=O)N[C@@H](CC(C)C)C(=O)N[C@@H](CCCNC(=N)N)C(=O)N[C@@H](CC(N)=O)C(=O)N[C@@H](CC(C)C)C(=O)N[C@H](C(=O)N1CCC[C@H]1C(=O)N[C@@H](CCCNC(=N)N)C(=O)N[C@H](C(=O)N[C@@H](CCC(=O)O)C(=O)N[C@@H](CO)C(=O)O)[C@@H](C)O)C(C)C)[C@@H](C)CC)C(C)C)[C@@H](C)CC [LL-37]	10 µg/mL	
CN[C@H](CC(C)C)C(=O)N[C@H]1C(=O)N[C@@H](CC(N)=O)C(=O)N[C@H]2C(=O)N[C@H]3C(=O)N[C@H](C(=O)N[C@H](C(=O)O)c4cc(O)cc(O)c4-c4cc3ccc4O)[C@H](O)c3ccc(c(Cl)c3)Oc3cc2cc(c3O[C@@H]2O[C@H](CO)[C@@H](O)[C@H](O)[C@H]2O[C@H]2C[C@](C)(N)[C@H](O)[C@H](C)O2)Oc2ccc(cc2Cl)[C@H]1O [vancomycin]		1 µg/mL (≈ 0.69 µM)
